PubChem BioAssay AID1224833 | University of Georgia, 2016

Test: 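Host factors restraining rotavirus as candidate antiviral genes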 (primary screen)
System: monkey MA104 kidney cells
Reagent: siRNA pool against human genes, 50 nM
Time to read-out: 48 h knock-down before infection; read 24 h after infection
Challenge: infection with rotavirus strain RV3 two days after transfection; infectious dose for this stage not given
Read-out: 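Rotavirus antigen per well by fluorescent immunoassay, normalised to non-targeting control wells on each plate and given as a standard z-score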
Scale: z-score vs non-targeting control: higher = more rotavirus replication than with non-targeting control
Active means: In these data the active calls have z-score vs non-targeting control at about -1 or lower, or at about 1 or higher
Calls: active = z-score beyond 1 either way; inactive = z-score within 1 of zero
The deposit covers about 12,000 reagents; shown is a random part of them. About 5,600 of them (46%) were called active. 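Active calls cover z-scores past 1 in both directions, so they include lowered as well as raised rotavirus replication.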 Reagent sequences are not shown.

The first 6 records, ahead of the listing:
| Target gene | z-score vs non-targeting control | activity call |
| --- | --- | --- |
| HEPACAM2 | 1.78 | active |
| PCBP4 | -0.866 | inactive |
| ZNF699 | -0.623 | inactive |
| IL37 | 1.53 | active |
| FAM3B | 1.08 | active |
| PCDHGA7 | 1.37 | active |

Results, repeating the preview:
| Target gene | z-score vs non-targeting control | activity call |
| --- | --- | --- |
| HEPACAM2 | 1.78 | active |
| PCBP4 | -0.866 | inactive |
| ZNF699 | -0.623 | inactive |
| IL37 | 1.53 | active |
| FAM3B | 1.08 | active |
| PCDHGA7 | 1.37 | active |
| GOLGA4 | 0.203 | inactive |
| ABCC10 | -0.727 | inactive |
| REDIC1 | 1.46 | active |
| GML | -1.47 | active |
| CCNP | -0.655 | inactive |
| AP5M1 | 0.145 | inactive |
| GIMAP5 | -0.872 | inactive |
| PCDHGB6 | -0.446 | inactive |
| VN1R5 | -0.971 | inactive |
| TP53TG5 | -0.512 | inactive |
| FIGN | 1.86 | active |
| RPL30 | -0.802 | inactive |
| RAB3GAP1 | 0.178 | inactive |
| VWA5A | -0.187 | inactive |
| GLS2 | 0.651 | inactive |
| SNX9 | 1.41 | active |
| PPP1R14D | -2.03 | active |
| CMTM8 | 1.14 | active |
| ATP6V0E1 | -1.74 | active |
| RSPH1 | 1.38 | active |
| TLX2 | 2.02 | active |
| MT1H | -1.18 | active |
| PGM1 | -2.47 | active |
| FEM1C | -1.25 | active |
| SLC20A1 | 0.887 | inactive |
| SLC39A11 | -0.732 | inactive |
| CDR1 | -1.16 | active |
| STXBP5 | 1.11 | active |
| OSTF1 | 1.8 | active |
| SLC30A3 | 1.06 | active |
| CPSF1 | 2.13 | active |
| RFXAP | 2.17 | active |
| ZCCHC10 | -0.261 | inactive |
| ACTC1 | -1.31 | active |
| RAP2C | 1.13 | active |
| IFNW1 | -0.865 | inactive |
| EDN1 | -1.87 | active |
| CD48 | -0.0915 | inactive |
| SPINK14 | -1.49 | active |
| ZIM2 | -0.985 | inactive |
| IBA57 | -1.44 | active |
| ZNF616 | 0.149 | inactive |
| OR13H1 | -1.05 | active |
| RASSF9 | -1.17 | active |
| ITGB8 | -0.669 | inactive |
| OR11L1 | -0.907 | inactive |
| MECR | -1.45 | active |
| ATF3 | 1.77 | active |
| C14orf119 | 1.2 | active |
| DEFA3 | -0.386 | inactive |
| FIGNL1 | -1.78 | active |
| MSI2 | 0.0682 | inactive |
| GIGYF2 | 0.776 | inactive |
| ZNF93 | -1.49 | active |
| RTP1 | 0.973 | inactive |
| CCDC15 | -1.53 | active |
| FBLN1 | -0.426 | inactive |
| ZNF175 | -4.73 | active |
| ZNF561 | -0.156 | inactive |
| TMEM259 | -2.38 | active |
| DCANP1 | 0.376 | inactive |
| ABCC2 | -0.82 | inactive |
| NCBP1 | -1.13 | active |
| MARS1 | -2.11 | active |
| SOST | 0.719 | inactive |
| POU3F1 | -1.23 | active |
| NNAT | 1.36 | active |
| NODAL | 0.892 | inactive |
| ASH2L | -1.61 | active |
